Data published in US12404262B2 (priority 2021, dated 2025).

How the values were obtained:
[1] = 1.0% DMSO, 24-hour incubation at ambient temperature, maximum theoretical 100 μM
[2] = Solubility in simulated intestinal fluids (FaSSIF/FeSSIF); settings: 25° C.

Q: With “((di-tert-butoxyphosphoryl)oxy)methyl (2-(3-(4-chloro-7-(2-((S)-1-(2-((3bS,4aR)-5,5-difluoro-3-(trifluoromethyl)-3b,4,4a,5-tetrahydro-1H-cyclopropa[3,4]cyclopenta[1,2-c]pyrazol-1-yl)acetamido)-2-(3,5-difluorophenyl)ethyl)-6-(3-methyl-3-(methylsulfonyl)but-1-yn-1-yl)pyridin-3-yl)-1-(2,2,2-trifluoroethyl)-1H-indazol-3-yl)-1-methyl-3-(methylsulfonyl)ureido)ethyl)carbamate” as the substance, how does the “pH 2 solubility” value ([1]; 0.1N HCl, first value of the cell) read?
A: 1 μM

Q: And the “pH 7 solubility” value ([1]; 1×PBS buffer (pH 7.4), second value of the cell)?
A: 83 μM

Q: And the FaSSIF solubility ([2]; fasted state simulated intestinal fluid, first value of the cell FaSSIF/FeSSIF)?
A: 490 µg/mL

Q: What about the FeSSIF solubility ([2]; fed state simulated intestinal fluid, second value of the cell FaSSIF/FeSSIF) of the same substance?
A: 660 µg/mL
